For 2 molecules, Kd results are on record in publication PMC12839305 (Biomolecules, 2025).

This assay concerns the target RVFV glycoprotein Gn head domain (154–469 aa) (Rift Valley fever virus, UniProt P21401 154-469, biotin (biotinylation kit; for the BLI only)). Description: BLI. For orientation: BLI is a label-free optical method that tracks binding on a fibre tip over time.

B1: LRP1 CL IV-B Mutation B2 (Asp3556Ala/Asp3558Ala/Asp3560Ala) (domain or fragment)
chain: MTCGVDEFRCKDSGRCIPARWKCDGEDDCGDGSDEPKEECDERTCEPYQFRCKNNRCVPGRWQCAYANACGDNSDEESCTPRPCSESEFSCANGRCIAGRWKCDGDHDCADGSDEKDCTPRCDMDQFQCKSGHCIPLRWRCDADADCMDGSDEEACGT
In turn, B1 came in with a Kd of 48 nM.

B2: LRP1 CL IV-B Mutation B3 (Asp3595Ala/Asp3597Ala/Asp3599Ala) (domain or fragment)
chain: MTCGVDEFRCKDSGRCIPARWKCDGEDDCGDGSDEPKEECDERTCEPYQFRCKNNRCVPGRWQCDYDNDCGDNSDEESCTPRPCSESEFSCANGRCIAGRWKCAGAHACADGSDEKDCTPRCDMDQFQCKSGHCIPLRWRCDADADCMDGSDEEACGT
With B2, the Kd was determined as 29 nM.

The Kd is the constant that tells how readily two partners part at equilibrium.
